Measured values from several laboratories, pooled; numbers as filed in NIAID ChemDB.

Shared fields: tests in culture; agent: HIV-1; cells: MT-4; endpoint: EC50

ECn: concentration that inhibits the pathogen or its effect by n%. Neighbouring rows are from separate reports. An empty or dashed field is not shown.

structure,strain,changes,read by,result
Cc1ccnc2c1NC(=O)c1cccnc1N2C1CC1,-,RT-K100I,cytopathic effect / MTT,>10 µM
Cc1cc(C#N)cc(C)c1Oc1ncc([N+](=O)[O-])c(Nc2ccc(C#N)cc2)n1,RES056,-,MTT,≥274 µM
Cc1cc(C#Cc2cccc(N)c2)cc(C)c1Oc1ccnc(NC2CCN(Cc3ccc(C#N)cc3)CC2)n1,IIIB,K103N,MTT,>0.261 µM
CC(=O)Oc1ccc(/C=C/C(=O)O[C@@H](C(=O)O)[C@@H](OC(=O)/C=C/c2ccc(OC(C)=O)c(OC(C)=O)c2)C(=O)O)cc1OC(C)=O,NL4-3,AMD2763-resistant,-,>74 µM
CC(=O)c1ccc(C)cc1NC(C(N)=O)c1c(Cl)cccc1Cl,ADP141 (RT D67N K70N T215F K219Q),RT-D67N K70N T215F K219Q,MTT,0.02 µg/mL
CCC(C)Oc1cc(N)nc(S(=O)(=O)c2ccc(Cl)cc2)n1,IIIB,-,cytopathic effect / MTT,>82 µM
Cc1cc(C#CC2CC2)cc(C)c1Oc1ccnc(Nc2ccc(C#N)cc2)n1,IIIB,RES056,MTT,1 µM
CCc1cc(NCc2nc3c(Cl)ccc(Cl)c3o2)c(=O)[nH]c1C,NL4-3,RT-Y181C,p24,>3 µM
Cc1ccnc2c1NC(=O)c1cccnc1N2C1CC1,IIIB,Y181C,MTT,3.785 µM
Cc1cn([C@H]2C[C@H](N=[N+]=[N-])[C@@H](CO)O2)c(=O)[nH]c1=O,IIIB,-,MTT,0.0002 µg/mL
Clc1nc(Cl)c2c(n1)Oc1nc(Cl)nc(Cl)c1C2c1ccccc1,IIIB,-,cytopathic effect,>17.5 µM
CC(C)CN(C[C@@H](O)[C@H](Cc1ccccc1)NC(=O)O[C@H]1CCOC1)S(=O)(=O)c1ccc(N)cc1,NL4-3,A28S L33F V82I GRL04810-resistant,-,>1 µM
Cc1cc(C=O)cc(C)c1Oc1ncc(NC(=O)C(F)(F)F)c(Nc2ccc(C#N)cc2)n1,IIIB,-,MTT,0.4831 µM
Cc1cc(C#Cc2cccc(N)c2)cc(C)c1Oc1ccnc(NC2CCN(Cc3cccc(C(N)=O)c3)CC2)n1,IIIB,Y181C,MTT,0.109 µM
CCN1C(=O)N(Cc2ccccc2)S(=O)(=O)c2cscc21,RF,-,syncytia,28.2 µM
CCC(C)Oc1nc(N)cc(S(=O)(=O)c2cc(C)cc(C)c2)n1,IIIB,-,cytopathic effect / MTT,>33 µM
C[C@H](Cn1cnc2c(N)ncnc21)OCP(=O)(OCOC(=O)OC1CCCC1)OCOC(=O)OC1CCCC1.O=C(O)/C=C/C(=O)O,IIIB,-,p24,>30 µM
CC(C)=CCN1Cc2cc(Cl)cc3[nH]c(=S)n(c23)C[C@@H]1C,13MB1 (TIBO-resistant RT L100I),RT-L100I,cytopathic effect / MTT,0.4 µg/mL
Clc1cc(CN2CCCNCCNCCCNCC2)c(Cl)cc1CN1CCCNCCNCCCNCC1,NL4-3,-,cytopathic effect / MTT,0.036 µg/mL
Cc1cccc(C)c1Oc1ccnc(Nc2ccc(C#N)cc2)n1,IIIB,Y181C,MTT,0.06 µM
Cc1cn([C@H]2C[C@H](N=[N+]=[N-])[C@@H](COP(=O)(OC(C)C)C(N)=O)O2)c(=O)[nH]c1=O,GKV-4046,-,p24,0.002 µM
O=c1[nH]c2c(c(=O)[nH]1)C(c1ccc(I)cc1)c1c([nH]c(=O)[nH]c1=O)O2,L1,-,cytopathic effect,>276 µM
Cc1cc(C#Cc2cccnc2)cc(C)c1Oc1ccnc(Nc2ccc(C#N)cc2)n1,IIIB,Y188L,MTT,0.154 µM
CCc1cc(NCc2nc3c(Cl)ccc(Cl)c3o2)c(=O)[nH]c1C,IIIB,-,p24,<0.11 µM
CC(C)(C)NC(=O)[C@@H]1C[C@@H]2CCCC[C@@H]2CN1C[C@@H](O)[C@H](Cc1ccccc1)NC(=O)[C@H](CC(N)=O)NC(=O)c1ccc2ccccc2n1,NL4-3,PR-L63P V82T I84V,p24,<0.05 µM
O=[N+]([O-])c1cc(CN2CCCNCCNCCCNCC2)cc(CN2CCCNCCNCCCNCC2)c1,RF,-,cytopathic effect / MTT,0.07 µg/mL
CC(C)[C@H](NC(=O)OCc1ccccc1)C(=O)N[C@@H](Cc1ccccc1)C(=O)C(F)(F)[C@H](Cc1ccccc1)NC(=O)[C@@H](NC(=O)OCc1ccccc1)C(C)C,IIIB,-,cytopathic effect / MTT,>100 µM
CC(C)[C@H](NC(=O)N(C)Cc1ccccn1)C(=O)N[C@@H](Cc1ccccc1)[C@H](O)[C@H](O)[C@H](Cc1ccccc1)NC(=O)[C@@H](NC(=O)N(C)Cc1ccccn1)C(C)C,IIIB,-,cytopathic effect / MTT,0.2 µM
CC(C)CN(C[C@@H](O)[C@H](Cc1ccccc1)NC(=O)O[C@H]1CO[C@H]2OCC(F)(F)[C@H]21)S(=O)(=O)c1ccc(N)cc1,NL4-3,-,-,0.0037 µM
Cc1ccc(/C=C/c2cc(C)c(Oc3ccnc(Nc4ccc(C#N)cc4)n3)c(C)c2)cc1,IIIB,E138K,MTT,0.307 µM
C=C(C#N)c1cc(C)c(Oc2ccnc(Nc3ccc(CN4CCN(S(C)(=O)=O)CC4)cc3)n2)c(C)c1,IIIB,Y188L,MTT,1.62 µM
CC(C)[C@H](NS(=O)(=O)CCc1ccccn1)C(=O)N[C@@H](Cc1ccccc1)C(=O)C(F)(F)[C@H](Cc1ccccc1)NC(=O)[C@@H](NS(=O)(=O)CCc1ccccn1)C(C)C,IIIB,-,cytopathic effect / MTT,0.56 µM
Cc1c(O)cccc1C(=O)N[C@@H](CSc1ccccc1)[C@H](O)CN1C[C@H]2CCCC[C@H]2C[C@H]1C(=O)NC(C)(C)C,IIIB,-,cytopathic effect / MTT,0.054 µM
C=CCOC(=O)OCOP(=O)(O)COCCn1cnc2c(N)ncnc21,-,-,p24,23.7 µM
CC(C)[C@H](NC(=O)OCc1ccccc1)C(=O)N[C@@H](Cc1ccccc1)[C@@H](O)[C@@H](NCc1ccccc1)C(=O)N[C@H](C(=O)NCc1ccc(Br)cc1)C(C)C,IIIB,-,cytopathic effect / MTT,1.7 µM
N#Cc1ccc(Nc2nc(Oc3c(Br)cc(Br)cc3Br)ncc2[N+](=O)[O-])cc1,RES056,-,MTT,>20.4 µM
Cc1cccc(COC(=O)N[C@H](C(=O)N[C@@H](Cc2ccccc2)C(=O)C(F)(F)[C@H](Cc2ccccc2)NC(=O)[C@@H](NC(=O)OCc2cccc(C)n2)C(C)C)C(C)C)n1,IIIB,-,cytopathic effect / MTT,0.007 µM
CC(C)[C@H](NC(=O)OCc1ccccc1)C(=O)N[C@@H](Cc1ccccc1)[C@@H](O)[C@@H](NCc1ccccc1)C(=O)N[C@H](C(=O)NCc1nc2ccccc2[nH]1)C(C)C,IIIB,-,cytopathic effect / MTT,0.025 µM
Cc1ccnc2c1NC(=O)c1cccnc1N2C1CC1,NL4-3,RT A62V 69SS K70R E79K V118I M184V E203K L210W T215Y,cytopathic effect,0.01 µM
C#CCN1C(=O)N(Cc2ccccc2)S(=O)(=O)c2cscc21,RF,-,syncytia,0.6 µM
Cc1cn([C@H]2C[C@H](N=[N+]=[N-])[C@@H](CO)O2)c(=O)[nH]c1=O,IIIB,-,cytopathic effect / MTT,0.016 µM
CCC(C)Oc1cc(N)nc(Sc2ccc(F)cc2)n1,IIIB,-,cytopathic effect / MTT,>67.5 µM
C=CCOC(=O)OCOP(=O)(CO[C@@H](C)Cn1cnc2c(N)ncnc21)OCOC(=O)OCC=C.O=C(O)/C=C/C(=O)O,IIIB,-,p24,1.61 µM
CCC(C)Oc1cc(N)nc(S(=O)(=O)c2cc(C)cc(C)c2)n1,IIIB,-,cytopathic effect / MTT,>70 µM
COc1ccc(CN[C@@H](C(=O)N[C@H](C(=O)NCCN2CCOCC2)C(C)C)[C@H](O)[C@H](Cc2ccccc2)NC(=O)[C@@H](NC(=O)OCc2ccccc2)C(C)C)cc1,IIIB,-,cytopathic effect / MTT,1.09 µM
CCN1C(=O)N(Cc2ccccc2Cl)S(=O)(=O)c2cscc21,HE,-,syncytia,11.5 µM
CC(=O)Nc1cnc(Oc2c(C)cc(C)cc2C)nc1Nc1ccc(C#N)cc1,IIIB,-,MTT,9.27 µM
c1ncc(CN2CCCNCCNCCCNCC2)cc1CN1CCCNCCNCCCNCC1,NL4-3,AMD3100-resistant,cytopathic effect / MTT,5 µg/mL
CC(C)CN(C[C@@H](O)[C@H](Cc1ccccc1)NC(=O)[C@H](CC(N)=O)NC(=O)c1ccc2ccccc2n1)C(=O)NC(C)(C)C,NL4-3,PR-M46I L63P,p24,<0.2 µM
CCCCCCCSc1nsc(NC(=O)Nc2ccccc2)n1,NL4-3,RT-K103N Y181C,cytopathic effect,33.5 µM
CCOP(=O)(OC[C@H]1O[C@@H](n2cc(C)c(=O)[nH]c2=O)C[C@@H]1N=[N+]=[N-])C(=O)NCCc1ccccc1,GKV-4046,-,p24,0.0009 µM
O=c1[nH]cnc2c1ncn2[C@H]1CC[C@@H](CO)O1,ADP144 (RT-L74V),RT-L74V,MTT,0.6 µg/mL
CC(=O)Nc1cnc(Oc2c(C)cc(C#N)cc2C)nc1Nc1ccc(C#N)cc1,RES056,-,MTT,>30.11 µM
CC(C)(C)NC(=O)[C@@H]1C[C@@H]2CCCC[C@@H]2CN1C[C@@H](O)[C@H](Cc1ccccc1)NC(=O)[C@H](CC(N)=O)NC(=O)c1ccc2ccccc2n1,NL4-3,L23I E34Q K43I M46I I50L G51A L63P A71V V82A T91A ATV resistant,-,0.46 µM
CC(C)(C)NC(=O)[C@@H]1C[C@@H]2CCCC[C@@H]2CN1C[C@@H](O)[C@H](Cc1ccccc1)NC(=O)[C@H](CC(N)=O)NC(=O)c1ccc2ccccc2n1,IIIB,-,cytopathic effect / MTT,0.023 µM
Cc1cn([C@H]2C[C@H](F)[C@@H](CO)O2)c(=O)[nH]c1=O,SCV 4005,-,antigen,0.0029 µM
Cc1cc(C#N)cc(C)c1Oc1ncc(N)c(Nc2ccc(C#N)cc2)n1,RES056,-,MTT,0.33 µM
Nc1ncnc2c1ncn2CCOCP(=O)(O)O,-,-,-,6.5 µM
Cc1cc(C#N)cc(C)c1Oc1nc(Nc2ccc(C#N)cc2)nc(N)c1Br,NL4-3,Lu164,luciferase / RT activity,0.00012 µM
CC(=O)Nc1cnc(Oc2c(C)cc(Br)cc2C)nc1Nc1ccc(C#N)cc1,IIIB,-,MTT,32.5 µM
Cc1cc(C#Cc2ccccc2N)cc(C)c1Oc1ccnc(Nc2ccc(C#N)cc2)n1,IIIB,L100I,MTT,>8.88 µM
Cc1cc(C=O)cc(C)c1Oc1ncc([N+](=O)[O-])c(Nc2ccc(C#N)cc2)n1,RES056,-,MTT,>37.18 µM
CCOC(=O)P(=O)(OCCc1ccccc1)OC[C@H]1O[C@@H](n2cc(C)c(=O)[nH]c2=O)C[C@@H]1N=[N+]=[N-],GKV-4046,-,p24,0.0039 µM
CCCCSc1nc(N)cc(Nc2cccc3ccccc23)n1,IIIB,-,cytopathic effect / MTT,>39 µM
Cc1cn([C@H]2C[C@H](N=[N+]=[N-])[C@@H](CO)O2)c(=O)[nH]c1=O,IIIB,RES056A,MTT,0.01 µM
N#CCN1C(=O)N(Cc2ccccc2)S(=O)(=O)c2cscc21,MN,-,syncytia,1.5 µM
CCCOP(=O)(OC[C@H]1O[C@@H](n2cc(C)c(=O)[nH]c2=O)C[C@@H]1N=[N+]=[N-])C(N)=O,GKV-4046,-,p24,0.0096 µM
Cc1cc(C#N)cc(C)c1Oc1ncc(NC(=O)C(F)(F)F)c(Nc2ccc(C#N)cc2)n1,IIIB,-,MTT,0.0375 µM
COc1cc(CN2CCCNCCNCCCNCC2)c(OC)cc1CN1CCCNCCNCCCNCC1,RF,-,cytopathic effect / MTT,0.07 µg/mL
Cc1cn([C@H]2C[C@H](N=[N+]=[N-])[C@@H](COP(=O)(OCC(C)(C)C)C(N)=O)O2)c(=O)[nH]c1=O,GKV-4046,-,p24,<0.0022 µM
Cc1cccc(C)c1OCC(=O)N[C@@H](Cc1ccccc1)[C@@H](O)C[C@H](Cc1ccccc1)NC(=O)[C@H](C(C)C)N1CCCNC1=O,IIIB,-,cytopathic effect / MTT,0.033 µM
Nc1ncnc2c1ncn2CCOCP(=O)(O)OCOC(=O)OCc1ccccc1,IIIB,-,p24,>30 µM

The first 7 rows once more:

{"structure": "Cc1ccnc2c1NC(=O)c1cccnc1N2C1CC1", "changes": "RT-K100I", "read by": "cytopathic effect / MTT", "result": ">10 µM"}
{"structure": "Cc1cc(C#N)cc(C)c1Oc1ncc([N+](=O)[O-])c(Nc2ccc(C#N)cc2)n1", "strain": "RES056", "read by": "MTT", "result": "≥274 µM"}
{"structure": "Cc1cc(C#Cc2cccc(N)c2)cc(C)c1Oc1ccnc(NC2CCN(Cc3ccc(C#N)cc3)CC2)n1", "strain": "IIIB", "changes": "K103N", "read by": "MTT", "result": ">0.261 µM"}
{"structure": "CC(=O)Oc1ccc(/C=C/C(=O)O[C@@H](C(=O)O)[C@@H](OC(=O)/C=C/c2ccc(OC(C)=O)c(OC(C)=O)c2)C(=O)O)cc1OC(C)=O", "strain": "NL4-3", "changes": "AMD2763-resistant", "result": ">74 µM"}
{"structure": "CC(=O)c1ccc(C)cc1NC(C(N)=O)c1c(Cl)cccc1Cl", "strain": "ADP141 (RT D67N K70N T215F K219Q)", "changes": "RT-D67N K70N T215F K219Q", "read by": "MTT", "result": "0.02 µg/mL"}
{"structure": "CCC(C)Oc1cc(N)nc(S(=O)(=O)c2ccc(Cl)cc2)n1", "strain": "IIIB", "read by": "cytopathic effect / MTT", "result": ">82 µM"}
{"structure": "Cc1cc(C#CC2CC2)cc(C)c1Oc1ccnc(Nc2ccc(C#N)cc2)n1", "strain": "IIIB", "changes": "RES056", "read by": "MTT", "result": "1 µM"}